PubChem BioAssay AID1259414 | Drosophila RNAi Screening Center – 2018

Screen: 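Fly genes that alter Wolbachia amount inside host cells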 (primary screen)
Cell system: Drosophila JW18 cells infected with Wolbachia
Reagent: long dsRNA against Drosophila genes, 0.25 µg dsRNA per well of a 384-well plate
Time to read-out: 5 days
Challenge: cells persistently infected with Wolbachia before knock-down; no added drug
Detection: 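Automated imaging of bacterial rRNA staining divided by host cell count, reported as plate-normalised robust z-score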
Reading the numbers: Wolbachia per cell robust z: higher = more Wolbachia per host cell than the plate typical
Hit rule: 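Active if absolute robust z reaches 1.5 in two or more of three replicates, leaving out multi- or no-target dsRNAs, genes unexpressed in JW18 and A1 wells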
The screen tested about 24,000 reagents; shown is a random part of those that have a named target and a result. Of all reagents, about 1,210 (5%) were called active. 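Inactive calls also include excluded dsRNAs with several or no targets, genes unexpressed in JW18, and well A1, regardless of score.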

| Target gene | dsRNA | Wolbachia per cell robust z, rep 1 | Wolbachia per cell robust z, rep 2 | Wolbachia per cell robust z, rep 3 | outcome |
| --- | --- | --- | --- | --- | --- |
| Pits (GeneID 32205) | DRSC19385 | 0.396 | -1.23 | 0.775 | inactive |
| Pits (GeneID 32205) | DRSC25013 | -0.786 | 0.213 | -0.944 | inactive |
| CG13921 (GeneID 38222) | DRSC08390 | 0.594 | 1.02 | 0.937 | inactive |
| CG13921 (GeneID 38222) | DRSC25529 | 0.314 | 0.983 | -0.396 | inactive |
| eIF4E5 (GeneID 38878) | DRSC10975 | 0.659 | 0.381 | -1.56 | inactive |
| eIF4E5 (GeneID 38878) | DRSC25877 | -1.69 | -0.462 | -1.66 | inactive |
| CG15446 (GeneID 33088) | DRSC20518 | 0.609 | -0.991 | 0.503 | inactive |
| CG13998 (GeneID 50423) | DRSC02330 | -4.35 | -0.843 | -0.399 | inactive |
| CG13998 (GeneID 50423) | DRSC41275 | 1.17 | -0.456 | 0.00265 | inactive |
| Est-P (GeneID 39393) | DRSC11163 | 0.475 | -0.388 | -4.22 | inactive |
| Est-P (GeneID 39393) | DRSC39152 | -0.273 | 1.05 | 1.31 | inactive |
| CCT8 (GeneID 35882) | DRSC07130 | 1.53 | 1.24 | 1 | inactive |
| CCT8 (GeneID 35882) | DRSC27213 | 0.911 | 0.437 | 0.887 | inactive |
| CG15098 (GeneID 37174) | DRSC06527 | -3.37 | 0.0663 | 0.206 | inactive |
| CG15098 (GeneID 37174) | DRSC29966 | 1.29 | -0.55 | -0.365 | inactive |
| l(2)k10201 (GeneID 48373) | DRSC06439 | 0.252 | 0.37 | 0.477 | inactive |
| l(2)k10201 (GeneID 48373) | DRSC07640 | -0.627 | -0.0235 | -1.65 | inactive |
| CG5390 (GeneID 34383) | DRSC02855 | 0.393 | 0.0892 | 1.95 | inactive |
| CG5390 (GeneID 34383) | DRSC27775 | -1.64 | -0.0511 | 0.565 | inactive |
| CG12279 (GeneID 41570) | DRSC14495 | 0.0635 | -3.63 | -0.0377 | inactive |
| Naa30B (GeneID 317976) | DRSC08245 | 0.086 | 0.526 | -0.142 | inactive |
| lncRNA:CR40172 (GeneID 19835766) | DRSC37759 | -5.15 | 0.212 | -0.323 | inactive |

Copied from the list:
CG13998 (GeneID 50423) [DRSC02330], outcome = inactive
eIF4E5 (GeneID 38878) [DRSC25877], Wolbachia per cell robust z, rep 2 = -0.462
eIF4E5 (GeneID 38878) [DRSC10975], outcome = inactive
Under “outcome”, CG12279 (GeneID 41570) [DRSC14495] reads inactive
Pits (GeneID 32205) [DRSC25013], Wolbachia per cell robust z, rep 2: 0.213
Under “Wolbachia per cell robust z, rep 1”, CG5390 (GeneID 34383) [DRSC02855] has 0.393

Further results:
| Target gene | dsRNA | Wolbachia per cell robust z, rep 1 | Wolbachia per cell robust z, rep 2 | Wolbachia per cell robust z, rep 3 | outcome |
| --- | --- | --- | --- | --- | --- |
| CG9519 (GeneID 32415) | DRSC20195 | -0.75 | 0.79 | -1.09 | inactive |
| CG9519 (GeneID 32415) | DRSC28137 | 0.0725 | 0.334 | -2.6 | inactive |
| Ir100a (GeneID 43753) | DRSC14329 | 1.57 | 1.87 | 2.08 | active |
| Ir100a (GeneID 43753) | DRSC25881 | -0.363 | 0.782 | 1.11 | inactive |
| CG34276 (GeneID 41934) | DRSC15811 | 0.709 | 0.555 | -0.428 | inactive |
| Miro (GeneID 42845) | DRSC15795 | -0.155 | -0.204 | 0.393 | inactive |
| CG4229 (GeneID 39840) | DRSC10407 | 0.0667 | -0.694 | -1.95 | inactive |
| Sfp24C1 (GeneID 8674059) | DRSC40634 | 0.228 | 0.808 | -0.576 | inactive |
| CR17024 (GeneID 14462752) | DRSC02562 | -0.105 | 0.916 | 0.88 | inactive |
| CG32369 (GeneID 38873) | DRSC10042 | 0.141 | -0.267 | -0.284 | inactive |
| CG32369 (GeneID 38873) | DRSC10834 | -0.165 | 0.454 | -0.464 | inactive |
| CG32369 (GeneID 38873) | DRSC23995 | -0.277 | 0.429 | 2.43 | inactive |
| CG7768 (GeneID 39573) | DRSC10914 | 0.724 | 0.151 | 0.742 | inactive |
| Mks1 (GeneID 32200) | DRSC19697 | 0.523 | -2.18 | 0.756 | inactive |
| CG11825 (GeneID 36099) | DRSC06090 | 1.25 | -5.27 | -3.85 | active |
| CG11825 (GeneID 36099) | DRSC27780 | 0.935 | -0.152 | -0.262 | inactive |
| al (GeneID 33208) | DRSC00799 | -2.08 | 1.04 | 0.418 | inactive |
| CG30427 (GeneID 37986) | DRSC04014 | 0.505 | -2.45 | -2 | inactive |
| CG30427 (GeneID 37986) | DRSC04311 | 0.016 | -0.966 | 0.0209 | inactive |
| CG30427 (GeneID 37986) | DRSC04323 | -0.664 | -0.0268 | 0.306 | inactive |
| CG30427 (GeneID 37986) | DRSC26361 | -6.34 | -8.39 | -1.31 | inactive |
| Tgt (GeneID 33307) | DRSC00672 | -0.944 | 0.353 | -0.239 | inactive |
| CG7367 (GeneID 34094) | DRSC03049 | 0.239 | 0.258 | 0.368 | inactive |
| CG7367 (GeneID 34094) | DRSC28024 | -0.0901 | -1.11 | -1.39 | inactive |
| DppIII (GeneID 40996) | DRSC16241 | -1.31 | -3.16 | -1.51 | active |
| DppIII (GeneID 40996) | DRSC27801 | 0.45 | 0.54 | -0.572 | inactive |
| CG6761 (GeneID 39134) | DRSC10705 | 0.341 | 0.769 | -0.104 | inactive |
| CG14244 (GeneID 50080) | DRSC14739 | -4.62 | 1.06 | 0.949 | inactive |
| CREG (GeneID 42092) | DRSC16595 | -1.94 | -1.04 | -1.8 | inactive |
| CG16964 (GeneID 34605) | DRSC02546 | 0.451 | -6.19 | -5.31 | inactive |
| CG16964 (GeneID 34605) | DRSC26799 | -8.26 | 0.0455 | -1.91 | inactive |
| Mst33A (GeneID 34578) | DRSC03371 | -2.24 | 0.86 | 1.88 | inactive |
| Mst33A (GeneID 34578) | DRSC27156 | 0.371 | 0.404 | -5.72 | inactive |
| CG6978 (GeneID 31413) | DRSC18409 | 0.00287 | -0.878 | -0.655 | inactive |
| CG11147 (GeneID 33803) | DRSC02129 | 0.4 | 0.642 | -1.1 | inactive |
| CG16896 (GeneID 37977) | DRSC04284 | 0.606 | -0.853 | 0.00618 | inactive |
| CG43740 (GeneID 31962) | DRSC23059 | -0.936 | -0.426 | 1.8 | inactive |
| CG43740 (GeneID 31962) | DRSC23267 | -0.964 | -5.09 | 0.957 | inactive |
| CG13248 (GeneID 40254) | DRSC11696 | -4.58 | -0.275 | -1.73 | active |
| CG13248 (GeneID 40254) | DRSC24446 | 0.138 | 0.422 | -0.445 | inactive |
| CG7627 (GeneID 34148) | DRSC03065 | -1.93 | -0.662 | 0.402 | inactive |
| CG7627 (GeneID 34148) | DRSC24481 | 0.151 | -0.252 | -0.353 | inactive |
| CG7627 (GeneID 34148) | DRSC39013 | -0.34 | 0.878 | -0.0654 | inactive |
| lncRNA:CR42651 (GeneID 14462440) | DRSC41377 | -0.75 | 0.306 | -2.83 | inactive |
| piwi (GeneID 34521) | DRSC03592 | -5.75 | 0.769 | 0.145 | inactive |
| CG1143 (GeneID 38329) | DRSC08188 | 1.05 | 0.243 | 0.0175 | inactive |
